For 15 molecules, OD S/N and Ave OD results are on record in patent publication US20040229298A1.

Values joined by “and” are separate entries in the source; they are usually repeats but may differ in a detail not shown here. Equal entries are not always repeated. Where two headings read alike, the source gives them in different places.

The target in test [1] is HPV16 E6 PDZ ligand peptide (biotinylated C-terminal peptide of the E6 protein of HPV 16) (human papillomavirus 16). Kind of test: G assay ELISA, signal over GST-only well.
The target is the same in test [2]. Nature of the test: G assay ELISA, immobilised GST-PDZ, 10 uM biotinylated peptide. (ELISA stands for enzyme-linked immunosorbent assay.)
Test [3] concerns the target T1, HPV16 E6 PDZ ligand peptide (biotinylated C-terminal peptide of the E6 protein of HPV 16) (human papillomavirus 16). Nature of the test: G assay ELISA, signal over GST-only well. This is another data set of the same source.
The target of test [4] is T1, HPV16 E6 PDZ ligand peptide …. Kind of test: G assay ELISA, immobilised GST-PDZ, 10 uM biotinylated peptide. This is another data set of the same source.

B1: GST-PDZ-73 PDZ domain 2 fusion protein (protein)
chain: MSPILGYWKIKGLVQPTRLLLEYLEEKYEEHLYERDEGDKWRNKKFELGLEFPNLPYYIDGDVKLTQSMAIIRYIADKHNMLGGCPKERAEISMLEGAVLDIRYGVSRIAYSKDFETLKVDFLSKLPEMLKMFEDRLCHKTYLNGDHVTHPDFMLYDALDVVLYMDPMCLDAFPKLVCFKKRIEAIPQIDKYLKSSKYIAWPLQGWQATFGGGDHPPKSDLIEGRKVFISLVGSRGLGCSISSGPIQKPGIFISHVKPGSLSAEVGLEIGDQIVEVNGVDFSNLDHKEAVNVLKSSRSLTISIVAAAG
The molecule B1 returned an OD S/N in test [1] of 1.95. The molecule further gave an Ave OD in test [2] of 0.561 A450 nm.

B2: GST-novel PDZ gene PDZ domain 1 fusion protein (protein)
chain: MSPILGYWKIKGLVQPTRLLLEYLEEKYEEHLYERDEGDKWRNKKFELGLEFPNLPYYIDGDVKLTQSMAIIRYIADKHNMLGGCPKERAEISMLEGAVLDIRYGVSRIAYSKDFETLKVDFLSKLPEMLKMFEDRLCHKTYLNGDHVTHPDFMLYDALDVVLYMDPMCLDAFPKLVCFKKRIEAIPQIDKYLKSSKYIAWPLQGWQATFGGGDHPPKSDLIEGRSVRVEKSPAGRLGFSVRGGSEHGLGIFVSKVEEGSSAERAGLCVGDKITEVNGLSLESTTMGSAVKVLTSSSRLHMMVRRMGR
In test [1], B2 registered an OD S/N of 1.89. Further, the Ave OD in test [2] was 0.545 A450 nm.

B3: GST-SITAC-18 PDZ domain 2 fusion protein (protein)
chain: MSPILGYWKIKGLVQPTRLLLEYLEEKYEEHLYERDEGDKWRNKKFELGLEFPNLPYYIDGDVKLTQSMAIIRYIADKHNMLGGCPKERAEISMLEGAVLDIRYGVSRIAYSKDFETLKVDFLSKLPEMLKMFEDRLCHKTYLNGDHVTHPDFMLYDALDVVLYMDPMCLDAFPKLVCFKKRIEAIPQIDKYLKSSKYIAWPLQGWQATFGGGDHPPKSDLIEGRTVTMHKDSMGHVGFVIKKGKIVSLVKGSSAARNGLLTNHYVCEVDGQNVIGLKDKKIMEILATAGNVVTLTIIPSV
With B3, the OD S/N in test [3] amounted to 2.46. The Ave OD in test [4] turned out to be 0.484 A450 nm.

B4: GST-MAGI 1 PDZ domain 4 fusion protein (protein)
chain: MSPILGYWKIKGLVQPTRLLLEYLEEKYEEHLYERDEGDKWRNKKFELGLEFPNLPYYIDGDVKLTQSMAIIRYIADKHNMLGGCPKERAEISMLEGAVLDIRYGVSRIAYSKDFETLKVDFLSKLPEMLKMFEDRLCHKTYLNGDHVTHPDFMLYDALDVVLYMDPMCLDAFPKLVCFKKRIEAIPQIDKYLKSSKYIAWPLQGWQATFGGGDHPPKSDLIEGRPDYQEQDIFLWRKETGFGFRILGGNEPGEPIYIGHIVPLGAADTDGRLRSGDELICVDGTPVIGKSHQLVVQLMQQAAKQGHVNLTVRRKVVFAVPKTENSS
With B4, in test [3], the OD S/N is 1.58. In test [4], this molecule had an Ave OD of 0.496 A450 nm.

B5: GST-NOS1 PDZ domain 1 fusion protein (protein)
chain: MSPILGYWKIKGLVQPTRLLLEYLEEKYEEHLYERDEGDKWRNKKFELGLEFPNLPYYIDGDVKLTQSMAIIRYIADKHNMLGGCPKERAEISMLEGAVLDIRYGVSRIAYSKDFETLKVDFLSKLPEMLKMFEDRLCHKTYLNGDHVTHPDFMLYDALDVVLYMDPMCLDAFPKLVCFKKRIEAIPQIDKYLKSSKYIAWPLQGWQATFGGGDHPPKSDLIEGRIQPNVISVRLFKRKVGGLGFLVKERVSKPPVIISDLIRGGAAEQSGLIQAGDIILAVNGRPLVDLSYDSALEVLRGIASETHVVLILRGP
Take B5: the OD S/N in test [3] was found to be 2.88. Further, in test [4], the Ave OD turned out to be 0.477 A450 nm.

B6: GST-EBP50 #287.1 PDZ domain 2 fusion protein (protein)
chain: MSPILGYWKIKGLVQPTRLLLEYLEEKYEEHLYERDEGDKWRNKKFELGLEFPNLPYYIDGDVKLTQSMAIIRYIADKHNMLGGCPKERAEISMLEGAVLDIRYGVSRIAYSKDFETLKVDFLSKLPEMLKMFEDRLCHKTYLNGDHVTHPDFMLYDALDVVLYMDPMCLDAFPKLVCFKKRIEAIPQIDKYLKSSKYIAWPLQGWQATFGGGDHPPKSDLIEGRLCTMKKGPSGYGFNLHSDKSKPGQFIRSVDPDSPAEASGLRAQDRIVEVNGVCMEGKQHGDVVSAIRAGGDETKLLVVDRE
As to B6, in test [3], the OD S/N came out at 2.57. Moreover, the Ave OD in test [4] is 0.499 A450 nm.

B7: GST-TAX IP 2 PDZ domain 1 fusion protein (protein)
chain: MSPILGYWKIKGLVQPTRLLLEYLEEKYEEHLYERDEGDKWRNKKFELGLEFPNLPYYIDGDVKLTQSMAIIRYIADKHNMLGGCPKERAEISMLEGAVLDIRYGVSRIAYSKDFETLKVDFLSKLPEMLKMFEDRLCHKTYLNGDHVTHPDFMLYDALDVVLYMDPMCLDAFPKLVCFKKRIEAIPQIDKYLKSSKYIAWPLQGWQATFGGGDHPPKSDLIEGRRKEVEVFKSEDALGLTITDNGAGYAFIKRIKEGSVIDHIHLISVGDMIEAINGQSLLGCRHYEVARLLKELPRGRTFTLKLTEPRK
Regarding B7, the OD S/N in test [3] was 2.37 and 2.48. Further, the Ave OD in test [4] was 0.508 A450 nm and 0.478 A450 nm.

B8: GST-KIAA0973 #148.5 PDZ domain 1 fusion protein (protein)
chain: MSPILGYWKIKGLVQPTRLLLEYLEEKYEEHLYERDEGDKWRNKKFELGLEFPNLPYYIDGDVKLTQSMAIIRYIADKHNMLGGCPKERAEISMLEGAVLDIRYGVSRIAYSKDFETLKVDFLSKLPEMLKMFEDRLCHKTYLNGDHVTHPDFMLYDALDVVLYMDPMCLDAFPKLVCFKKRIEAIPQIDKYLKSSKYIAWPLQGWQATFGGGDHPPKSDLIEGRGLRSPITIQRSGKKYGFTLRAIRVYMGDTDVYSVHHIVWHVEEGGPAQEAGLCAGDLITHVNGEPVHGMVHPEVVELILKSGNKVAVTTTPFE
Regarding B8, in test [3], the OD S/N came out at 2.71. In test [4], this molecule came in with an Ave OD of 0.498 A450 nm.

B9: GST-MUPP1 PDZ domain 7 fusion protein (protein)
chain: MSPILGYWKIKGLVQPTRLLLEYLEEKYEEHLYERDEGDKWRNKKFELGLEFPNLPYYIDGDVKLTQSMAIIRYIADKHNMLGGCPKERAEISMLEGAVLDIRYGVSRIAYSKDFETLKVDFLSKLPEMLKMFEDRLCHKTYLNGDHVTHPDFMLYDALDVVLYMDPMCLDAFPKLVCFKKRIEAIPQIDKYLKSSKYIAWPLQGWQATFGGGDHPPKSDLIEGRRVELWREPSKSLGISIVGGRGMGSRLSNGEVMRGIFIKHVLEDSPAGKNGTLKPGDRIVEVDGMDLRDASHEQAVEAIRKAGNPVVFMVQSII
As to B9, the OD S/N in test [3] was determined as 1.61. Besides, in test [4], the Ave OD was determined as 0.498 A450 nm.

B10: GST-KIAA1526 #125.1 PDZ domain 1 fusion protein (protein)
chain: MSPILGYWKIKGLVQPTRLLLEYLEEKYEEHLYERDEGDKWRNKKFELGLEFPNLPYYIDGDVKLTQSMAIIRYIADKHNMLGGCPKERAEISMLEGAVLDIRYGVSRIAYSKDFETLKVDFLSKLPEMLKMFEDRLCHKTYLNGDHVTHPDFMLYDALDVVLYMDPMCLDAFPKLVCFKKRIEAIPQIDKYLKSSKYIAWPLQGWQATFGGGDHPPKSDLIEGRLVSLRRAKAHEGLGFSIRGGSEHGVGIYVSLVEPGSLAEKEGLRVGDQILRVNDKSLARVTHAEAVKALKGSKKLVLSVYSAGR
As to B10, the OD S/N in test [3] was 6.69 and 3.57. The Ave OD in test [4] is 1.38 A450 nm and 0.766 A450 nm.

B11: GST-KIAA0147 PDZ domain 4 fusion protein (protein)
chain: MSPILGYWKIKGLVQPTRLLLEYLEEKYEEHLYERDEGDKWRNKKFELGLEFPNLPYYIDGDVKLTQSMAIIRYIADKHNMLGGCPKERAEISMLEGAVLDIRYGVSRIAYSKDFETLKVDFLSKLPEMLKMFEDRLCHKTYLNGDHVTHPDFMLYDALDVVLYMDPMCLDAFPKLVCFKKRIEAIPQIDKYLKSSKYIAWPLQGWQATFGGGDHPPKSDLIEGRELCIQKAPGERLGISIRGGARGHAGNPRDPTDEGIFISKVSPTGAAGRDGRLRVGLRLLEVNQQSLLGLTHGEAVQLLRSVGDTLTVLVCDGFEA
B11 registered an OD S/N in test [3] of 2.17. In test [4], this molecule came in with an Ave OD of 0.464 A450 nm.

B12: GST-KIAA1526 #126.1 PDZ domain 2 fusion protein (protein)
chain: MSPILGYWKIKGLVQPTRLLLEYLEEKYEEHLYERDEGDKWRNKKFELGLEFPNLPYYIDGDVKLTQSMAIIRYIADKHNMLGGCPKERAEISMLEGAVLDIRYGVSRIAYSKDFETLKVDFLSKLPEMLKMFEDRLCHKTYLNGDHVTHPDFMLYDALDVVLYMDPMCLDAFPKLVCFKKRIEAIPQIDKYLKSSKYIAWPLQGWQATFGGGDHPPKSDLIEGRKVNLVLGDGRSLGLTIRGGAEYGLGIYITGVDPGSEAEGSGLKVGDQILEVNWRSFLNILHDEAVRLLKSSRHLILTVKDVGR
Molecule B12 gave an OD S/N in test [1] of 1.87. Also, the Ave OD in test [2] was 0.463 A450 nm.

B13: GST-SSTRIP PDZ domain 1 fusion protein (protein)
chain: MSPILGYWKIKGLVQPTRLLLEYLEEKYEEHLYERDEGDKWRNKKFELGLEFPNLPYYIDGDVKLTQSMAIIRYIADKHNMLGGCPKERAEISMLEGAVLDIRYGVSRIAYSKDFETLKVDFLSKLPEMLKMFEDRLCHKTYLNGDHVTHPDFMLYDALDVVLYMDPMCLDAFPKLVCFKKRIEAIPQIDKYLKSSKYIAWPLQGWQATFGGGDHPPKSDLIEGRLKEKTVLLQKKDSEGFGFVLRGAKAQTPIEEFTPTPAFPALQYLESVDEGGVAWRAGLRMGDFLIEVNGQNVVKVGHRQVVNMIRQGGNTLMVKVVMVTRHPDMDEAVQ
Molecule B13 gave an OD S/N in test [3] of 3.28. The molecule further registered an Ave OD in test [4] of 0.467 A450 nm.

B14: GST-Shank 1 PDZ domain 1 fusion protein (protein)
chain: MSPILGYWKIKGLVQPTRLLLEYLEEKYEEHLYERDEGDKWRNKKFELGLEFPNLPYYIDGDVKLTQSMAIIRYIADKHNMLGGCPKERAEISMLEGAVLDIRYGVSRIAYSKDFETLKVDFLSKLPEMLKMFEDRLCHKTYLNGDHVTHPDFMLYDALDVVLYMDPMCLDAFPKLVCFKKRIEAIPQIDKYLKSSKYIAWPLQGWQATFGGGDHPPKSDLIEGREEKTVVLQKKDNEGFGFVLRGAKADTPIEEFTPTPAFPALQYLESVDEGGVAWQAGLRTGDFLIEVNNENVVKVGHRQVVNMIRQGGNHLVLKVVTVTRNLDPDDTARKKA
Molecule B14 showed an OD S/N in test [3] of 2.53. Further, in test [4], the Ave OD was 0.466 A450 nm.

B15: GST-KIAA1284 PDZ domain 1 fusion protein (protein)
chain: MSPILGYWKIKGLVQPTRLLLEYLEEKYEEHLYERDEGDKWRNKKFELGLEFPNLPYYIDGDVKLTQSMAIIRYIADKHNMLGGCPKERAEISMLEGAVLDIRYGVSRIAYSKDFETLKVDFLSKLPEMLKMFEDRLCHKTYLNGDHVTHPDFMLYDALDVVLYMDPMCLDAFPKLVCFKKRIEAIPQIDKYLKSSKYIAWPLQGWQATFGGGDHPPKSDLIEGRKDVNVYVNPKKLTVIKAKEQLKLLEVLVGIIHQTKWSWRRTGKQGDGERLVVHGLLPGGSAMKSGQVLIGDVLVAVNDVDVTTENIERVLSCIPGPMQVKLTFENAYDVKRET
In turn, B15 returned an OD S/N in test [3] of 2.72. The Ave OD in test [4] was 0.473 A450 nm.
